{
  "source": "paper PMC12679539",
  "about": "“Synthesis and evaluation of nitroheterocyclic aromatic adamantane amides with trypanocidal activity. Part II” (RSC Medicinal Chemistry, 2025)",
  "system": "T. cruzi epimastigotes",
  "test": "Activity against Trypanosoma cruzi epimastigotes (Alamar Blue growth inhibition)",
  "type": "cell-based, Trypanosoma cruzi (strain CL Brener)",
  "conditions": "ratio of IC50 values obtained with L6 cells and T. cruzi epimastigotes",
  "description": "Trypanocidal activity was assessed by growing parasites in microtiter plates in the presence of various drug concentrations. […] The plates were incubated for 4 days at 28 °C and 20 μL Alamar Blue (Biosource UK Ltd) was then added to each well. After an additional 3 days incubation, the fluorescence was determined using a Gemini fluorescent plate reader (Molecular Devices). Inhibition of growth was calculated by comparison with control values and IC50 and IC90 values were determined in triplicate using linear regression analysis.",
  "data": [
    {"molecule": "CC1CS(=O)(=O)CCN1/N=C/c1ccc([N+](=O)[O-])o1", "note": "(stereo not shown) [Nfx, nifurtimox, reference compound]", "values": [
      {"measurement": "S.I. (epimastigotes) IC50/Tc IC50", "value": 10}
    ]}
  ]
}
